Assay results from paper PMC10944477 (Communications Biology, 2024).

System: CN(C)[C@@H]1C(=O)C(C(N)=O)=C(O)[C@@]2(O)C(=O)C3=C(O)c4c(O)cccc4[C@@](C)(O)[C@H]3C[C@@H]12
Experiment: purified protein
Details: pH 8.5

Row | Substance | Km [µM]
1 | Tet(56-2) (Legionella clemsonensis) | 5.2 ± 0.4
2 | Tet(56-3) (Legionella massiliensis) | 14.6 ± 2.0
